Substitutions are numbered along the chain they refer to. Several values for one entry are separate records, joined by “and”; a condition that tells them apart may be missing. Identical values can stand only once.
B1: DG (aka D95/G93) Fab (Fab, V domains shown)
VH: QVTLRESGPALVKPTQTLTLTCTFSGFSLSTAGMSVGWIRQPPGKALEWLADIWWDDKKDYNPSLKSRLTISKDTSKNQVVLKVTNMDPADTATYYCARDMITNFYFDVWGQGTTVTVSS
VL: DIQMTQSPSTLSASVGDRVTITCSASSSVGYMHWYQQKPGKAPKLLIYDTFKLASGVPSRFSGSGSGTEFTLTISSLQPDDFATYYCFQGSGYPFTFGGGTKVEIK
B2: P12f4 Fab (Fab, V domains shown)
VH: B1 VH with A32P, D57G, D60H, S67D, T103F
VL: B1 VL with A25L, S28R, F51R, K52G, A54P
B3: A1h5 Fab (Fab, V domains shown)
VH: B1 VH with D57G, D60H, S67D, T103F, F105W
VL: B1 VL with A25L, K52F, L53H, A54R

The binders below were run against F protein of RSV (Long strain) (RSV (Long strain), UniProt P12568 26-574) (assay: cell-based or functional assay).

Binder	Microneutralization IC50, Fab
B1	0.126 µg/ml and 2.52 nM
B2	0.93 nM
B3	0.194 µg/ml and 3.88 nM

Reference: patent publication US20110158985A1, “Methods of preventing and treating rsv infections and related conditions” (published 2011)
